# Laboratory results reported in patent US20250171511A1, “ANTIVIRAL PEPTIDES AND METHODS OF USE THEREOF” (Versitech Limited, priority 2021, published 2025).
# Where a SMILES comes first, the peptide text is derived from it.
# System: SARS-CoV-2
# Assay: Plaque reduction assay against SARS-CoV-2
# Assay type: cell-based
# Settings: PBS (150 mM) versus […])
structure (smiles),measurement,value
CC[C@H](C)[C@H](NC(=O)[C@H](C)NC(=O)CN)C(=O)N[C@@H](CS)C(=O)N[C@@H](Cc1c[nH]cn1)C(=O)N1CCC[C@H]1C(=O)N[C@H](C(=O)N[C@@H](Cc1ccccc1)C(=O)N[C@@H](CS)C(=O)N1CCC[C@H]1C(=O)N[C@@H](CCCNC(=N)N)C(=O)N[C@@H](CCCNC(=N)N)C(=O)N[C@@H](Cc1ccc(O)cc1)C(=O)N[C@@H](CCCCN)C(=O)N[C@@H](CCC(N)=O)C(=O)N[C@H](C(=O)NCC(=O)N[C@H](C(=O)N[C@@H](CS)C(=O)NCC(=O)N[C@@H](CC(C)C)C(=O)N1CCC[C@H]1C(=O)NCC(=O)N[C@H](C(=O)N[C@@H](CCCCN)C(=O)N[C@@H](CS)C(=O)N[C@@H](CS)C(=O)N[C@@H](CCCCN)C(=O)N[C@@H](CCCCN)C(=O)N1CCC[C@H]1C(=O)O)[C@@H](C)O)[C@@H](C)O)[C@@H](C)CC)C(C)C [Peptide H30] (H-GAICHPVFCPRRYKQIGTCGLPGTKCCKKP-OH; N-terminus and C-terminus assumed),antiviral activity against SARS-CoV-2,inhibited SARS-CoV-2 in PBS but more effective in low salt condition
